Consider 2 molecules from patent publication US20140120577A1, “Metalloporphyrin Inducible Promoter” (CHR HANSEN A/S, priority 2011, published 2014).

The subject of this data set is Lactococcus lactis MG1363. In words: Final OD600 of L. lactis cultures after 1 hour of inducer treatment. The class given is cell-based. The note with it: BHI-Tris-glucose.

For `C=CC1=C(C)C2=[N+]3C1=Cc1c(C)c(C=C)c4[n]1[Ga-]31[n]3c(c(C)c(CCC(=O)O)c3=CC3=[N+]1C(=C4)C(C)=C3CCC(=O)O)=C2` (centres unmarked) [Ga-PPIX, gallium-protoporphyrin IX], the “final OD600” value runs as follows: (aerated, 1 μM) 0.7; (aerated, 10 μM) 0.7; (non-aerated, 1 μM) 1; (non-aerated, 10 μM) 1.
For the molecule `C=CC1=C(C)c2cc3[n-]c(cc4[n-]c(cc5nc(cc1n2)C(C)=C5C=C)c(C)c4CCC(=O)O)c(CCC(=O)O)c3C.[Cl-].[Fe+3]` [hemin], the “final OD600” value is listed as 0.7 (aerated, 1 μM); 0.7 (aerated, 10 μM); 1 (non-aerated, 1 μM); 0.6 (non-aerated, 10 μM).
